Measured data: PubChem BioAssay AID1259414 (Drosophila RNAi Screening Center, 2018)
Aim: 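Fly genes that alter Wolbachia amount inside host cells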 (primary screen). Cell system: Drosophila JW18 cells infected with Wolbachia. Knock-down reagent: long dsRNA against Drosophila genes, 0.25 µg dsRNA per well of a 384-well plate. Duration: 5 days. Challenge: cells persistently infected with Wolbachia before knock-down; no added drug. Read-out: 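Automated imaging of bacterial rRNA staining divided by host cell count, reported as plate-normalised robust z-score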. Scale: Wolbachia per cell robust z: higher = more Wolbachia per host cell than the plate typical. Active means: 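Active if absolute robust z reaches 1.5 in two or more of three replicates, leaving out multi- or no-target dsRNAs, genes unexpressed in JW18 and A1 wells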.
The deposit covers about 24,000 reagents; below is an unselected part of those with a known target gene and a result. Of all reagents, about 1,210 (5%) were called active. 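Inactive calls also include excluded dsRNAs with several or no targets, genes unexpressed in JW18, and well A1, regardless of score.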 Reagents against one gene are numbered here. Names joined by + are all predicted targets of the reagent.

gene | dsRNA no. | Wolbachia per cell robust z, rep 1 | Wolbachia per cell robust z, rep 2 | Wolbachia per cell robust z, rep 3 | call
CG15909 | 1 | -0.77 | 1.02 | 0.106 | inactive
CG5793 | 1 | -1.29 | -0.142 | 0.324 | inactive
CG5793 | 2 | 0.733 | 0.467 | 0.629 | inactive
alpha-Man-IIb | 1 | 0.256 | 0.373 | 0.533 | inactive
alpha-Man-IIb | 2 | -0.604 | -1.55 | -0.0915 | inactive
alpha-Man-IIb | 3 | -0.243 | 0.408 | 1.19 | inactive
CG17636 | 1 | -0.0627 | -1.03 | -0.146 | inactive
Cyp4ad1 | 1 | 0.874 | -1.39 | -1.95 | inactive
l(2)37Bb | 1 | -0.133 | 0.364 | -3.24 | active
Hsf | 1 | -5.07 | 0.446 | -1.74 | active
Hsf | 2 | -0.4 | 0.625 | -0.24 | inactive
Or46a + asRNA:CR43467 | 1 | 0.632 | -1.55 | 0.0566 | inactive
slif | 1 | -2.38 | 0.76 | -0.856 | inactive
slif | 2 | 0.852 | 0.308 | 0.937 | inactive
nom | 1 | -0.521 | -0.438 | 0.338 | inactive
nom | 2 | -0.754 | -0.0963 | 0.238 | inactive
Muc91C | 1 | 0.48 | -0.984 | 0.0108 | inactive
Muc91C | 2 | -1.04 | -1.03 | -1.25 | inactive
Muc91C | 3 | 0.64 | -2.64 | -0.653 | inactive
Bdp1 | 1 | -0.0914 | 1.28 | -0.146 | inactive
Bdp1 | 2 | -0.0679 | 1.37 | 1.2 | inactive
ph-p | 1 | -0.3 | 0.599 | -6.28 | inactive
CG42758 | 1 | -0.00297 | -1.22 | -0.678 | inactive
ort | 1 | -0.447 | -0.354 | 0.247 | inactive
ort | 2 | 1.28 | -0.524 | 1.46 | inactive
CG4009 | 1 | 0.0594 | 0.892 | -7.92 | inactive
Adgf-D | 1 | -1.71 | 1.89 | -0.417 | inactive
CG2790 | 1 | 0.224 | -4 | -5.51 | active
CG2790 | 2 | 0.49 | -0.0203 | 0.105 | inactive
CG2790 | 3 | 1.09 | -1.21 | -0.492 | inactive
